Results on 1 compound are retold here after ChEMBL document CHEMBL3817767, “OpenGrowth: An Automated and Rational Algorithm for Finding New Protein Ligands” (J Med Chem, 2016).

The target in this assay is Protease (Human immunodeficiency virus 1, UniProt Q9YQ12, I47A). The assay is described as follows: Binding affinity to HIV1 protease I47A mutant.

Structures are written as SMILES.

Usually Kd stands for the free concentration of one partner at which half of the binding sites on the other are occupied at equilibrium, for simple one-to-one binding. A lower Kd goes with higher affinity. As to `Cc1cccc(C)c1OCC(=O)N[C@@H](Cc1ccccc1)[C@@H](O)C[C@H](Cc1ccccc1)NC(=O)[C@H](C(C)C)N1CCCNC1=O` [LOPINAVIR], the dissociation constant (Kd) was 1.1 nM.
